The subject of the assay is influenza antigen (Influenza APR834). It counts as in vivo. The following applies: adjuvant with pDNA-HA, intradermal, Balb/c mice, one immunization, sera 21 days, vs pDNA-HA alone. Further details: key: increased immune response from the animals (as denoted by X) as compared to the inoculums that contained pDNA-HA alone, or non-immune inoculums.

For IL-2: cytokine interleukin 2, the “Increased Immune Response, pDNA-HA” value is listed as “X”.

The values are drawn from patent US20070292386A9, “Vaccine formulations for intradermal delivery comprising adjuvants and antigenic agents” (priority 2004, published 2007).
